From article PMC9784957 (Viruses, 2022)

Test system: gp41 ectodomain protein construct C22(L4)N50
Assay: Covalent adduct formation with gp41 ectodomain protein construct
Format: biochemical, HIV-1
Details: for Covalent adduct formation with C22(L4)N50 (Maldi-TOF): overnight at 37 °C, phosphate buffer pH 7.8

| SMILES | Covalent adduct formation with C22(L4)N50 (Maldi-TOF) | Mass modification site (trypsin digest and LC-MS/MS) |
| --- | --- | --- |
| CCOC(=O)c1cc(O)n(-c2ccc(C(=O)Oc3c(F)c(F)c(S(=O)(=O)O)c(F)c3F)cc2)n1 [Compound 3-STP] | only a small amount of the adduct |  |
| Cn1ncc2ccc(-c3ccc4cnn(Cc5ccc(F)c(C(=O)Oc6c(F)c(F)c(S(=O)(=O)O)c(F)c6F)c5)c4c3)cc21 [Compound 2-STP] | adduct formation could be completed | predominantly at K574 |
